## Share of PSTVd loop 6 variants by leaf site

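A pool of all variants was put on leaves of three Nicotiana benthamiana plants. Progeny were sequenced from the inoculated region (day 5), the margin of the inoculated leaf (day 10) and systemic leaves (day 12).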

PSTVd intermediate strain, loop 6: wild type UGACCGCGAG, pool pattern UNNNCGNNNG; upper and lower strand joined, each 5' to 3', the first 5 letters being the upper strand, closing pairs included.

Values are reads per thousand in the sample; higher means more abundant, 0 means not found. Each value is the mean of three plants. "Pool" is the share in the plasmid pool used as inoculum, on the same scale. The inoculated region was read from the minus strand, the other sites from the plus strand.

| sequence | pool | inoculated region | leaf margin | systemic leaves |
|---|---|---|---|---|
| UGGACGCUGG | 0.157 | 0.0955 | 0.0155 | 0 |
| UCGGCGUCUG | 0.392 | 0.0476 | 0.00920 | 0 |
| UGUCCGCUAG | 0.170 | 0.131 | 0.0232 | 0 |
| UGCACGCCGG | 0.301 | 0.0949 | 0.00920 | 0 |
| UAUCCGGAGU | 0.0131 | 0 | 0 | 0 |
| UAACCGUCCG | 0.105 | 0.714 | 0.0846 | 0.0203 |
| UUCUCUGUCC | 0.0131 | 0 | 0 | 0 |
| UGACAGGCGG | 0.0131 | 0 | 0 | 0 |
| UAAGCGGCCG | 0.392 | 0.670 | 0.0276 | 0 |
| UAAGCGCACG | 0.222 | 0.0886 | 0 | 0 |
| UUCGCGCACG | 0.209 | 0.0469 | 0.0184 | 0 |
| UAAACGGGGG | 0.0915 | 0.601 | 0.0607 | 0 |
| UGGACGUUUG | 0.379 | 0.156 | 0 | 0 |
| UAAGCGGGUG | 0.157 | 0.0773 | 0 | 0 |
| UCCUCGGAUG | 0.222 | 0.0646 | 0.0169 | 0 |
| UGGUCGUAGG | 0.314 | 0.0655 | 0.00773 | 0 |
| UCAACGCCCG | 0.222 | 0.0529 | 0.0155 | 0 |
| UUCCCGACCG | 0.144 | 0.0601 | 0 | 0 |
| UCCUCGAUCG | 0.118 | 0.102 | 0.00773 | 0 |
| UGAUCGUCAG | 0.314 | 0.0535 | 0 | 0.00684 |
| UAGACGAUGG | 0.183 | 0.0940 | 0.0169 | 0 |
| UGAUCUCAUA | 0.0131 | 0 | 0 | 0.0205 |
| UCAUCGUCUG | 0.196 | 0.101 | 0.00920 | 0 |
| UUUCCGGUUG | 0.327 | 0.101 | 0.00773 | 0 |
| UCAGCGAAAG | 0.248 | 0.0892 | 0 | 0 |
| UUGGCGUUUG | 0.523 | 0.102 | 0.0232 | 0 |
| UCUCCGGUCG | 0.235 | 0.113 | 0.0261 | 0 |
| UCAGCGUCAG | 0.288 | 0.588 | 0.0591 | 0 |
| UAACCGAGAG | 0.183 | 0.719 | 0.101 | 0 |
| UAAUCGUUCG | 0.340 | 0.0773 | 0.0184 | 0 |
| UACGCGAGGG | 0.196 | 0.0597 | 0 | 0 |
| UACUCGCAGG | 0.170 | 0.108 | 0.00773 | 0 |
| UAUGCGUAGG | 0.131 | 0.0774 | 0.00773 | 0 |
| UCGGCGCGCG | 0.209 | 0.0712 | 0 | 0 |
| UGAUCGCGGG | 0.275 | 0.0894 | 0 | 0 |
| UAGUCGUUCG | 0.340 | 0.0594 | 0.00920 | 0 |
| UUACCGUGUG | 0.314 | 0.167 | 0.00920 | 0 |
| UAAUCGUGCG | 0.392 | 0.0784 | 0 | 0 |
| UAUCCGGGUG | 0.209 | 0.119 | 0 | 0 |
| UUUUCGAUUG | 0.235 | 0.0771 | 0 | 0 |
| UACUCGGGCG | 0.157 | 0.113 | 0.00920 | 0 |
| UCAACGGUGG | 0.196 | 0.131 | 0.00920 | 0 |
| UUCGCGUCAG | 0.288 | 0.0786 | 0 | 0 |
| UAUUCGUCCG | 0.196 | 0.0768 | 0 | 0 |
| UUACCGGCUG | 0.275 | 0.107 | 0.0169 | 0.00684 |
| UGGUCGAUGG | 0.379 | 0.0831 | 0.00920 | 0 |
| UCAUCGGAGA | 0.0131 | 0 | 0 | 0 |
| UUUACGGGCG | 0.144 | 0.613 | 0.111 | 0 |
| UUGCCGCGUG | 0.235 | 0.101 | 0.0155 | 0 |
| UGGUCGCGCG | 0.275 | 0.0950 | 0 | 0 |
| UGGUCUGCAG | 0.0131 | 0 | 0 | 0 |
| UCACCGACAG | 0.170 | 0.0952 | 0.00773 | 0 |
| UACACGAAGG | 0.131 | 0.114 | 0.00773 | 0 |
| UUCUCGGAGG | 0.261 | 0.107 | 0 | 0 |
| UGAUCGCCUG | 0.314 | 0.106 | 0.0330 | 0 |
| UGAGCGGGAC | 0.0131 | 0.496 | 0.0815 | 0.0341 |
| UCCGCGUAGG | 0.275 | 0.107 | 0.00920 | 0 |
| UCUUCGGAGG | 0.288 | 0.125 | 0 | 0 |
| UGGCCGUCCG | 0.261 | 0.157 | 0.00773 | 0 |
| UUAACGUCCG | 0.261 | 0.561 | 0.107 | 0.0466 |

A selection of 5 entries from above:

| sequence | pool | inoculated region | leaf margin | systemic leaves |
|---|---|---|---|---|
| UAAGCGGGUG | 0.157 | 0.0773 | 0 | 0 |
| UCCUCGAUCG | 0.118 | 0.102 | 0.00773 | 0 |
| UGAGCGGGAC | 0.0131 | 0.496 | 0.0815 | 0.0341 |
| UGGUCGAUGG | 0.379 | 0.0831 | 0.00920 | 0 |
| UAAGCGGCCG | 0.392 | 0.670 | 0.0276 | 0 |

The authors trace changes outside the varied positions to PCR and sequencing errors or to mutation in the plant; presence does not show that a variant is infectious alone. Samples held 36,220 to 57,551 reads, so the smallest values rest on one or two reads. For reference, wild type rose from 20.7 per thousand in the pool to 195, 198, 203 (inoculated region), 629, 591, 734 (leaf margin) and 942, 870, 868 (systemic leaves).

Data from the supplement of Wu et al. 2024, doi:10.1371/journal.ppat.1012142.